Test results from PMC9602734, “Research into the Bioengineering of a Novel α-Conotoxin from the Milked Venom of Conus obscurus” (2022).

Sequences of proteins named here, by UniProt entry; tags and fusion partners are left off. Residues count along the entry.
UniProt P17787, 26-502 limits assumed: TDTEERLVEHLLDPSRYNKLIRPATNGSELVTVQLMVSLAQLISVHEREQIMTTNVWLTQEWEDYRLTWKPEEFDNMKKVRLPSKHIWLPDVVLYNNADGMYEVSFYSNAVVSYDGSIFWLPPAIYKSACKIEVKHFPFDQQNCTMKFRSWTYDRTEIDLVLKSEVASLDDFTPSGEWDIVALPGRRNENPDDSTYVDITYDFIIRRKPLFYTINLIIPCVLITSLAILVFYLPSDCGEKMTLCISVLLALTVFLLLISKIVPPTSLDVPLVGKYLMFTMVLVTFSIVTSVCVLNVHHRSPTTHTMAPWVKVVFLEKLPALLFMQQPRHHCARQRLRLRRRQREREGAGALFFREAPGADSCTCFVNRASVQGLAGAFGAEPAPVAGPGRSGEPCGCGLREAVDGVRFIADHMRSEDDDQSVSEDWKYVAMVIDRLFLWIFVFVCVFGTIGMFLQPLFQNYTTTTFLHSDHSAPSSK
UniProt P32297, 32-505 limits assumed: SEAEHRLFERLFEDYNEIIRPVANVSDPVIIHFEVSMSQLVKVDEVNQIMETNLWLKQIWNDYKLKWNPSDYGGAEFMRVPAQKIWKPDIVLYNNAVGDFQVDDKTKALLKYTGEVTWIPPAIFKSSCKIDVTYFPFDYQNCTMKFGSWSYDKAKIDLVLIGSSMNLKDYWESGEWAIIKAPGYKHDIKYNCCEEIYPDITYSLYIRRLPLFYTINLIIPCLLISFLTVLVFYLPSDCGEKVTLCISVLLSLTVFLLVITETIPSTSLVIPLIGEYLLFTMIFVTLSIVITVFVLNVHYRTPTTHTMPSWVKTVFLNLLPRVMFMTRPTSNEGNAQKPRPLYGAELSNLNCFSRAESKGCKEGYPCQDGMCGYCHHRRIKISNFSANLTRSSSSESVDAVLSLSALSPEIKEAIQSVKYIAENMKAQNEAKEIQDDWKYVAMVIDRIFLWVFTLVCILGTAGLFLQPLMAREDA
UniProt P43681, 29-627 limits assumed: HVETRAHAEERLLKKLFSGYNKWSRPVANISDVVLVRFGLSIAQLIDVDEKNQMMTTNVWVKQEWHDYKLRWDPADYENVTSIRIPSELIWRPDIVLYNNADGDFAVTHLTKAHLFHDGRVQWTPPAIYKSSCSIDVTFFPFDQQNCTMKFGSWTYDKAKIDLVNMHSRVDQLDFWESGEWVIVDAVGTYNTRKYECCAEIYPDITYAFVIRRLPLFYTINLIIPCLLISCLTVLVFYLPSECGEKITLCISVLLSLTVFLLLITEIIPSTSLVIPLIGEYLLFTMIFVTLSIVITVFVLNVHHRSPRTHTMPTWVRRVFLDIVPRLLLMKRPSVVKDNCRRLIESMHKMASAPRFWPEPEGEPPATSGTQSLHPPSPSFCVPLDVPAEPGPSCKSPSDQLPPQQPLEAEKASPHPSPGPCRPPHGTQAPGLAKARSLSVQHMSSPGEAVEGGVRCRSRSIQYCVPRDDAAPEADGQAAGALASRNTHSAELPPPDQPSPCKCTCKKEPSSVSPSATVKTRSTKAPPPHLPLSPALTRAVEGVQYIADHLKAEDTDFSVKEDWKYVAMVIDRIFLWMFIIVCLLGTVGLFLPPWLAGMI
UniProt P30926, 22-498 limits assumed: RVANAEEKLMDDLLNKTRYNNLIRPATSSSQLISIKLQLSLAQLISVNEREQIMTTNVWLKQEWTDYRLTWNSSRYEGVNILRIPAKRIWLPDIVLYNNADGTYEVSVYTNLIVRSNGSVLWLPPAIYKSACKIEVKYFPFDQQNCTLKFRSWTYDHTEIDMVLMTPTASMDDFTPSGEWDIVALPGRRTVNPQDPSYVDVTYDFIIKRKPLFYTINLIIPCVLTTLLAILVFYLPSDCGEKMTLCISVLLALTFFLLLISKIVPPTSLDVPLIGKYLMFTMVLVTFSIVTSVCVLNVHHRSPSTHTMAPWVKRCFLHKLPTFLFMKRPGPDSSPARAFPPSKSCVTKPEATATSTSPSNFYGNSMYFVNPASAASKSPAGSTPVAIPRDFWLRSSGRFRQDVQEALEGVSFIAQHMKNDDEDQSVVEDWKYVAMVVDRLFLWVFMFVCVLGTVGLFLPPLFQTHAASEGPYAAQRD
UniProt P36544, 23-502 limits assumed: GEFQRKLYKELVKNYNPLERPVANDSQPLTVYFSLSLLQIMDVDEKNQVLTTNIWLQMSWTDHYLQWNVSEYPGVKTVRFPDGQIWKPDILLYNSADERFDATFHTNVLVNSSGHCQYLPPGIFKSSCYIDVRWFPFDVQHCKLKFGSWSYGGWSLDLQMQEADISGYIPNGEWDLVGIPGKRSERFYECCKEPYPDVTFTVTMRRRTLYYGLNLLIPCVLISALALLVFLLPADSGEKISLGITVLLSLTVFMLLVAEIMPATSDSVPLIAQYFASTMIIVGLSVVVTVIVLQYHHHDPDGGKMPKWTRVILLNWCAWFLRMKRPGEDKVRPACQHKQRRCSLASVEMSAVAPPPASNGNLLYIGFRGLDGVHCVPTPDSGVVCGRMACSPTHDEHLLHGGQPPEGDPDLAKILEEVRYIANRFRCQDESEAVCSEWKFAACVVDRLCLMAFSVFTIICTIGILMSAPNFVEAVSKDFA
UniProt Q9GZZ6, 25-450 limits assumed: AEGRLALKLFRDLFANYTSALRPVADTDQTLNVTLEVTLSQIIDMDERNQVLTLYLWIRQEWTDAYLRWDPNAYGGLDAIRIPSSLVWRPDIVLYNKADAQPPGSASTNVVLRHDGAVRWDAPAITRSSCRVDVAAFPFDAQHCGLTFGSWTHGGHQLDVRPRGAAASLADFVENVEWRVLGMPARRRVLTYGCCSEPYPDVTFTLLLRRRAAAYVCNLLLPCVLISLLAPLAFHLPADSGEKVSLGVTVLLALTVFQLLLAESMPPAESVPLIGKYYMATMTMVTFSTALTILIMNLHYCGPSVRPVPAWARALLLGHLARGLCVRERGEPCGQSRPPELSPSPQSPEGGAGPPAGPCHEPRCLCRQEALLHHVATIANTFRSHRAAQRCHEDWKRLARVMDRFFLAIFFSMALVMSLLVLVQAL
UniProt Q9UGM1, 26-479 limits assumed: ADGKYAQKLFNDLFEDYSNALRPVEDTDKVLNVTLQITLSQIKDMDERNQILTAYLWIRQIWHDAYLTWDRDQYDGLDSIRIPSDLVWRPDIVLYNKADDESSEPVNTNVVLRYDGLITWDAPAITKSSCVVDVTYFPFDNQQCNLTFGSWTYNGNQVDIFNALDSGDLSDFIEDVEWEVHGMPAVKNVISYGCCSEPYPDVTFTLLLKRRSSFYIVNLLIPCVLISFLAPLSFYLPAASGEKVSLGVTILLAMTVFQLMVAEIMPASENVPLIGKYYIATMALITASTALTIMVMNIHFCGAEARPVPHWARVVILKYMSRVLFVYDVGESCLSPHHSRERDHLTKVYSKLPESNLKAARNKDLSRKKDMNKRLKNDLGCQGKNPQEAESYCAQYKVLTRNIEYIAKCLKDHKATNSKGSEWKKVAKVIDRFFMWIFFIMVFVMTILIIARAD

Experiments:
Test in all cases: Two-electrode voltage clamp, neuronal nAChR in Xenopus laevis oocytes
[1] = target: human neuronal nAChR α3β2 (Homo sapiens, UniProt P17787+P32297); details: at >100μM, TEVC
[2] = target: human neuronal nAChR α4β2 (Homo sapiens, UniProt P17787+P43681); details: at >100μM, TEVC, ACh 200 µM
[3] = target: human neuronal nAChR α4β4 (Homo sapiens, UniProt P30926+P43681); details: at >100μM, TEVC, ACh 200 µM
[4] = target: human neuronal nAChR α7 (Homo sapiens, UniProt P36544); details: at >100μM, TEVC, ACh 100 µM
[5] = target: human neuronal nAChR α9α10 (Homo sapiens, UniProt Q9GZZ6+Q9UGM1); details: at >100μM, TEVC, ACh 500 µM

C[C@@H]1NC(=O)[C@@H]2CCCN2C(=O)[C@H](Cc2c[nH]cn2)NC(=O)[C@@H]2CSSC[C@@H](C(N)=O)NC(=O)[C@H](CO)NC(=O)[C@H](Cc3ccccc3)NC(=O)[C@H](CC(N)=O)NC(=O)[C@@H]3CCCN3C(=O)CNC(=O)[C@H](CSSC[C@H](NC(=O)[C@@H](N)Cc3ccc(O)cc3)C(=O)N2)NC1=O
no inhibition: inhibition of α3β2 [1] | inhibition of α4β2 [2] | inhibition of α4β4 [3] | inhibition of α7 [4] | inhibition of α9α10 [5]
